Compound potency records, mixed from different reports. Data source: NIAID ChemDB in PubChem.

Shared fields: growth or infection tests; species: Hepatitis B virus; method: PCR; read-out: EC50

a–b is a range or a potency band.

smiles,conditions,cell line,mutations,value
CNC(=O)c1ccc(-n2c(=O)c3c(n4ncc(NCc5ccc(OCC(N)=O)cc5)c24)CN(C(=O)c2ccc(Cl)c(Cl)c2)CC3)cc1,3 d,HepG2.117,-,0.5–5 µM
Cc1cc(NC(=O)c2c3c(cn2C)S(=O)(=O)NC2CN(C(=O)C(=O)NC(C)(C)C(F)(F)F)CCC2CO3)ccc1F,-,HepAD38,-,<0.5 µM
CCCNC(=O)C(=O)N1CC[C@@H](NS(=O)(=O)c2cn(C)c(C(=O)Nc3cc(F)c(F)c(F)c3)c2F)C(F)(F)C1,-,HepAD38 cells,-,<0.1 µM
Cn1nc2cc(NS(=O)(=O)c3cnn(-c4ccccc4)c3)ccc2c1C(=O)Nc1ccc(F)c(Cl)c1,-,HepAD38,-,100–1000 µM
CNC(=O)c1ccc(-n2c(=O)c3c(n4ncc(Cc5ccc(F)cc5)c24)CN(C(=O)c2ccc(Br)c(Cl)c2)CC3)cc1,3 d,HepG2.117,-,<0.1 µM
C[C@@H](Oc1ccc(CNC(=O)c2c3n(c(=O)n2-c2ccc(OCC(F)(F)F)cc2)CCN(C(=O)c2ccc(Br)c(Cl)c2)C3)c(F)c1)C(N)=O,-,HepG2.117,-,0.5–5 µM
C=CCNS(=O)(=O)CNc1ccc2c(C(=O)Nc3ccc(F)c(Cl)c3)n(C)nc2c1,-,HepAD38,-,<100 µM
Cc1cc(NC(=O)c2c3c(cn2C)S(=O)(=O)NC2CN(C(=O)C(=O)NC4(C)COC4)CC2CO3)ccc1F,-,HepAD38,-,<0.5 µM
CCOC(=O)C1=C(CN2CC(F)(F)[C@H]3[C@@H]2CCN3C[C@](C)(O)C(=O)O)NC(c2nc(C)cs2)=N[C@H]1c1cccc(F)c1C,-,HepG2.2.15,-,0.004 µM
Cn1nc2cc(NS(=O)(=O)NC(c3ccccn3)C(F)(F)F)ccc2c1C(=O)Nc1ccc(F)c(Cl)c1,-,HepAD38,-,>1000 µM
Cc1cc(NC(=O)c2c3c(cn2C)S(=O)(=O)NC2CN(C(=O)C(N)=O)CC2CO3)ccc1F,-,HepAD38,-,<0.5 µM
Cn1cc(C(=O)C(=O)Nc2ccc3c(C(=O)Nc4ccc(F)c(Cl)c4)n(C)nc3c2)cn1,-,HepAD38,-,100–1000 µM
COc1cccc(C)c1CNC(=O)c1c2n(c(=O)n1-c1ccc(OCC(F)(F)F)cc1)CCN(C(=O)c1ccc(Br)c(Cl)c1)C2,-,HepG2.117,-,0.1–0.5 µM
Cc1ccc(-n2cc(S(=O)(=O)Nc3ccc4c(C(=O)Nc5ccc(F)c(Cl)c5)n(C)nc4c3)cn2)nc1,-,HepAD38,-,<100 µM
NC(=O)c1ccc(-n2c(=O)c3c(n4ncc(Cc5ccccc5)c24)CN(C(=O)c2ccc(Br)c(Cl)c2)CC3)cc1,3 d,HepG2.117,-,0.5–5 µM
CCOC(=O)C1=C(CN2CC(F)(F)[C@@H]3[C@H]2CON3C[C@@H](O)C(C)(C)C(=O)O)NC(c2nccs2)=N[C@H]1c1cccc(F)c1C,-,HepG2.2.15,-,0.034 µM
Cn1ncc(NS(=O)(=O)c2ccc3c(C(=O)Nc4ccc(F)c(Cl)c4)n(C)nc3c2)c1Cl,-,HepAD38,-,100–1000 µM
Cc1c(C(=O)C(=O)NC(C)(C)c2cnn(C3CC3)c2)c(C)n(C)c1C(=O)Nc1ccc(F)c(C#N)c1,-,HepG2.2.15,-,0.001–0.0099 µM
C[C@H]1CN(c2ccc(-n3c(C(=O)NCc4ccccc4)c4n(c3=O)CCN(C(=O)c3ccc(Br)c(Cl)c3)C4)cc2)CCO1,-,HepG2.117,-,0.1–0.5 µM
C#C[C@@H](C)NC(=O)C(=O)c1c(C)c(C(=O)Nc2ccc(F)c(C#N)c2)n(C)c1C,-,HepG2.2.15,-,0.001–0.0099 µM
CCOC(=O)C1=C(CN2CC(F)(F)[C@@H]3[C@H]2CON3C[C@H](O)C(C)(C)C(=O)O)NC(c2nccs2)=N[C@@H]1c1ccc(Cl)c(F)c1,-,HepG2.2.15,-,0.039 µM
Cc1cc(NC(=O)c2c3c(cn2C)S(=O)(=O)N[C@H]2CN(C(=O)C(=O)N[C@H](C)C(F)(F)F)C[C@H]2CO3)ccc1F,-,HepG2,V124G,0.0068 µM
CCOC(=O)C1=C(CN2CC(F)(F)[C@@H]3[C@H]2CON3C[C@H](O)C(C)(C)C(=O)O)NC(c2nccs2)=N[C@H]1c1ccc(F)c(F)c1C,-,HepG2.2.15,-,0.0115 µM
O=C(NC1CC1)c1ccc(-n2c(=O)c3c(n4ncc(Cc5ccccc5)c24)CN(C(=O)c2ccc(Br)c(Cl)c2)CC3)cc1,3 d,HepG2.117,-,>5 µM
CCc1ccc(-n2c(C(=O)NCc3ccccc3)c3n(c2=O)CCN(C(=O)c2ccc(Br)c(Cl)c2)C3)nc1,-,HepG2.117,-,0.5–5 µM
Cc1cnn2c3c(c(=O)n(-c4ccccc4)c12)CCN(C(=O)c1ccc(Br)c(F)c1)C3,3 d,HepG2.117,-,0.5–5 µM
Cn1nc2cc(NS(=O)(=O)c3ccn(-c4ccnc(N)n4)n3)ccc2c1C(=O)Nc1ccc(F)c(Cl)c1,-,HepAD38,-,<100 µM
Cc1c(C(=O)C(=O)NC2(c3cnn(C4CC4)n3)CC(F)(F)C2)c(C)n(C)c1C(=O)Nc1ccc(F)c(C(F)(F)F)c1,-,HepG2.2.15,-,0.001–0.0099 µM
CC(C)Oc1ccc(-n2c(C(=O)N[C@H](C)c3ccccc3)c3n(c2=O)CCN(C(=O)c2ccc(Br)c(Cl)c2)C3)cc1,-,HepG2.117,-,0.1–0.5 µM
COc1ccc(-n2c(=O)c3c(n4ncc(NC(=O)C(C)C)c24)CN(C(=O)c2ccc(Cl)c(Cl)c2)CC3)cc1,3 d,HepG2.117,-,>5 µM
[2H][C@@]1(c2cccc(F)c2C)N=C(c2nccs2)NC(CN2CC(F)(F)[C@@H]3[C@H]2CON3C[C@H](O)C(C)(C)C(=O)O)=C1C(=O)OCC,-,HepG2.2.15,-,0.055 µM
C#C[C@@](C)(CO)NC(=O)C(=O)c1c(C)c(C(=O)Nc2ccc(F)c(C(F)(F)F)c2)n(C)c1C,-,HepG2.2.15,-,0.001–0.0099 µM
CCOC(=O)C1=C(CN2CC(F)(F)[C@@H]3[C@H]2CON3C[C@H](O)C(C)(C)C(=O)O)NC(c2nc(C)cs2)=N[C@H]1c1cccc(F)c1C,-,HepG2.2.15,-,0.0425 µM
CNS(=O)(=O)N1CC[C@@H](NS(=O)(=O)c2c(F)c(C(=O)Nc3ccc(F)c(F)c3)n(C)c2Br)C1,-,HepAD38 cells,-,<0.1 µM
Cc1c(C(=O)C(=O)NC(C)(C)c2cn[nH]c2)c(C)n(C)c1C(=O)Nc1ccc(F)c(C(F)(F)F)c1,-,HepG2.2.15,-,<0.001 µM
Cn1cnc2c(CNC(=O)c3c4n(c(=O)n3-c3ccc(OC5CC5)cc3)CCN(C(=O)c3ccc(Br)c(Cl)c3)C4)cccc21,-,HepG2.117,-,0.1–0.5 µM
C#CC1(NC(=O)C(=O)c2c(C)c(C(=O)Nc3ccnc(F)c3Br)n(C)c2C)CC(F)(F)C1,-,HepG2.2.15,-,0.001–0.0099 µM
Cn1nc2cc(NS(=O)(=O)c3cnn(-c4ccccn4)c3)ccc2c1C(=O)Nc1ccc(F)c(Cl)c1,-,HepAD38,-,<100 µM
CNC(=O)C(=O)N1CC2COc3c(cn(C)c3C(=O)Nc3ccc(F)c(C)c3)S(=O)(=O)NC2C1,-,HepAD38,-,<0.5 µM
C#C[C@](CO)(NC(=O)C(=O)c1c(C)c(C(=O)Nc2ccc(F)c(C#N)c2)n(C)c1C)C(F)(F)F,-,HepG2.2.15,-,0.001–0.0099 µM
CCOC(=O)C1=C(CN2CC(F)(F)[C@@H]3[C@H]2CON3C[C@@H](OC)C(C)(C)C(=O)O)NC(c2nccs2)=N[C@H]1c1cccc(F)c1Cl,-,HepG2.2.15,-,0.001 µM
CNC(=O)C(=O)N1CC[C@@H](NS(=O)(=O)c2c(F)c(C(=O)Nc3cc(F)c(F)c(F)c3)n3c2CCCC3)C1,-,HepAD38 cells,-,0.1–0.3 µM
C#CC1(NC(=O)C(=O)c2c(C)c(C(=O)Nc3ccc(F)c(C#N)c3)n(C)c2C)CC(O)C1,-,HepG2.2.15,-,0.001–0.0099 µM
Cn1cc(S(=O)(=O)N[C@@H]2CCN(S(=O)(=O)C3CC3)C2)c(F)c1C(=O)Nc1ccc(F)c(F)c1,-,HepAD38 cells,-,<0.1 µM
CCOC(=O)C1=C(CN2CC(F)(F)[C@H]3[C@@H]2CCN3C[C@](C)(O)C(=O)O)NC(c2nccs2)=N[C@H]1c1cccc(F)c1F,-,HepG2.2.15,-,0.021 µM
COc1ccc(-n2c(C(=O)NCc3ccc4oc(C)nc4c3)c3n(c2=O)CCN(C(=O)c2ccc(Cl)c(Cl)c2)C3)cc1,-,HepG2.117,-,0.5–5 µM
Cc1cc(NC(=O)c2c3c(cn2C)S(=O)(=O)N[C@H]2CN(C(=O)C(=O)NC4CC(F)(F)C4)C[C@H]2CO3)ccc1F,-,HepAD38,-,<0.5 µM

An empty or dashed field is not shown. Neighbouring rows are from separate reports. ECn: concentration that inhibits the pathogen or its effect by n%.